Source: patent publication US8975078B2, “Method for expressing a mouse olfactory receptor Olfr15 on a cell membrane” (Panasonic Corporation, priority 2011, dated 2015)

Tested on: mouse olfactory receptor Olfr15
Assay: Expression rate of mouse olfactory receptor Olfr15 on the cell membrane of transfected HEK293T cells (immunofluorescence)
Type: cell-based
Settings: Comparative Example 3: phenylarsine oxide 1.7 μg/ml instead of chlorpromazine, otherwise as Example 1

`O=[As]c1ccccc1` (stereo not shown) was tested, and the “Expression rate on the cell membrane (%)” value was 8.9%.
